Measured values reported in ChEMBL document CHEMBL1275243 (2010).

Key:
Bacillus anthracis [1] = experiment: Antimicrobial activity against Bacillus anthracis A0465 assessed as change in fluorescence threshold cycle at 8 ug/ml after 4 hrs by real-time PCR viability assay relative to control
Bacillus anthracis [2] = experiment: Antimicrobial activity against Bacillus anthracis A0462 assessed as change in fluorescence threshold cycle at 1 ug/ml after 4 hrs by real-time PCR viability assay relative to control
Bacillus anthracis [3] = experiment: Antimicrobial activity against Bacillus anthracis 240 assessed as change in fluorescence threshold cycle at 16 ug/ml after 4 hrs by real-time PCR viability assay relative to control
Bacillus anthracis [4] = experiment: Antimicrobial activity against Bacillus anthracis A0193 assessed as change in fluorescence threshold cycle at 16 ug/ml after 4 hrs by real-time PCR viability assay relative to control
Bacillus anthracis [5] = experiment: Antimicrobial activity against pXO1-positive and pXO2 negative Bacillus anthracis 34F2 assessed as change in fluorescence threshold cycle at 0.12 ug/ml after 4 hrs by real-time PCR viability assay relative to control
Bacillus anthracis [6] = experiment: Antimicrobial activity against Bacillus anthracis A0465 assessed as change in fluorescence threshold cycle at 0.06 ug/ml after 4 hrs by real-time PCR viability assay relative to control
Bacillus anthracis [7] = experiment: Antimicrobial activity against Bacillus anthracis A03768 assessed as change in fluorescence threshold cycle at 1 ug/ml after 4 hrs by real-time PCR viability assay relative to control
Bacillus anthracis [8] = experiment: Antimicrobial activity against Bacillus anthracis A0293 assessed as change in fluorescence threshold cycle at 8 ug/ml after 4 hrs by real-time PCR viability assay relative to control
Bacillus anthracis [9] = experiment: Antimicrobial activity against Bacillus anthracis A0293 assessed as change in fluorescence threshold cycle at 4 ug/ml after 4 hrs by real-time PCR viability assay relative to control
Bacillus anthracis [10] = experiment: Antimicrobial activity against Bacillus anthracis A0488 assessed as change in fluorescence threshold cycle at 8 ug/ml after 4 hrs by real-time PCR viability assay relative to control
Bacillus anthracis [11] = experiment: Antimicrobial activity against Bacillus anthracis A0149 assessed as change in fluorescence threshold cycle at 1 ug/ml after 4 hrs by real-time PCR viability assay relative to control
Bacillus anthracis [12] = experiment: Antimicrobial activity against pXO1-positive and pXO2 negative Bacillus anthracis 34F2 assessed as change in fluorescence threshold cycle at 16 ug/ml after 4 hrs by real-time PCR viability assay relative to control
Bacillus anthracis [13] = experiment: Antimicrobial activity against Bacillus anthracis A0248 assessed as change in fluorescence threshold cycle at 0.25 ug/ml after 4 hrs by real-time PCR viability assay relative to control
Bacillus anthracis [14] = experiment: Antimicrobial activity against Bacillus anthracis A0102 assessed as change in fluorescence threshold cycle at 0.06 ug/ml after 4 hrs by real-time PCR viability assay relative to control
Bacillus anthracis [15] = experiment: Antimicrobial activity against Bacillus anthracis A0293 assessed as change in fluorescence threshold cycle at 2 ug/ml after 4 hrs by real-time PCR viability assay relative to control
Bacillus anthracis [16] = experiment: Antimicrobial activity against Bacillus anthracis A03768 assessed as change in fluorescence threshold cycle at 16 ug/ml after 4 hrs by real-time PCR viability assay relative to control
Bacillus anthracis [17] = experiment: Antimicrobial activity against Bacillus anthracis A03768 assessed as change in fluorescence threshold cycle at 0.5 ug/ml after 4 hrs by real-time PCR viability assay relative to control
Bacillus anthracis [18] = experiment: Antimicrobial activity against Bacillus anthracis A0264 assessed as change in fluorescence threshold cycle at 0.06 ug/ml after 4 hrs by real-time PCR viability assay relative to control
Bacillus anthracis [19] = experiment: Antimicrobial activity against Bacillus anthracis A0264 assessed as change in fluorescence threshold cycle at 0.25 ug/ml after 4 hrs by real-time PCR viability assay relative to control
Bacillus anthracis [20] = experiment: Antimicrobial activity against Bacillus anthracis A0419 assessed as change in fluorescence threshold cycle at 0.06 ug/ml after 4 hrs by real-time PCR viability assay relative to control
Bacillus anthracis [21] = experiment: Antimicrobial activity against Bacillus anthracis A0188 assessed as change in fluorescence threshold cycle at 0.12 ug/ml after 4 hrs by real-time PCR viability assay relative to control
Bacillus anthracis [22] = experiment: Antimicrobial activity against Bacillus anthracis A0293 assessed as change in fluorescence threshold cycle at 0.25 ug/ml after 4 hrs by real-time PCR viability assay relative to control
Bacillus anthracis [23] = experiment: Antimicrobial activity against Bacillus anthracis A0188 assessed as change in fluorescence threshold cycle at 16 ug/ml after 4 hrs by real-time PCR viability assay relative to control
Bacillus anthracis [24] = experiment: Antimicrobial activity against Bacillus anthracis A03768 assessed as change in fluorescence threshold cycle at 0.12 ug/ml after 4 hrs by real-time PCR viability assay relative to control
Bacillus anthracis [25] = experiment: Antimicrobial activity against Bacillus anthracis A0188 assessed as change in fluorescence threshold cycle at 2 ug/ml after 4 hrs by real-time PCR viability assay relative to control
Bacillus anthracis [26] = experiment: Antimicrobial activity against Bacillus anthracis A0248 assessed as change in fluorescence threshold cycle at 8 ug/ml after 4 hrs by real-time PCR viability assay relative to control
Bacillus anthracis [27] = experiment: Antimicrobial activity against pXO1-positive and pXO2 negative Bacillus anthracis 34F2 assessed as change in fluorescence threshold cycle at 2 ug/ml after 4 hrs by real-time PCR viability assay relative to control
Bacillus anthracis [28] = experiment: Antimicrobial activity against Bacillus anthracis A0149 assessed as change in fluorescence threshold cycle at 0.5 ug/ml after 4 hrs by real-time PCR viability assay relative to control

| SMILES | deltaCT (Bacillus anthracis [1]) | deltaCT (Bacillus anthracis [2]) | deltaCT (Bacillus anthracis [3]) | deltaCT (Bacillus anthracis [4]) | deltaCT (Bacillus anthracis [5]) | deltaCT (Bacillus anthracis [6]) | deltaCT (Bacillus anthracis [7]) | deltaCT (Bacillus anthracis [8]) | deltaCT (Bacillus anthracis [9]) | deltaCT (Bacillus anthracis [10]) | deltaCT (Bacillus anthracis [11]) | deltaCT (Bacillus anthracis [12]) | deltaCT (Bacillus anthracis [13]) | deltaCT (Bacillus anthracis [14]) | deltaCT (Bacillus anthracis [15]) | deltaCT (Bacillus anthracis [16]) | deltaCT (Bacillus anthracis [17]) | deltaCT (Bacillus anthracis [18]) | deltaCT (Bacillus anthracis [19]) | deltaCT (Bacillus anthracis [20]) | further results |
| --- | --- | --- | --- | --- | --- | --- | --- | --- | --- | --- | --- | --- | --- | --- | --- | --- | --- | --- | --- | --- | --- |
| O=C(O)c1cn(C2CC2)c2cc(N3CCNCC3)c(F)cc2c1=O [CIPROFLOXACIN] | 0.86 | 8.48 | 8.73 | 7.21 | 6.32 | 6.15 | 8.74 | 7.86 | 4.89 | 0.41 | 2.53 | 6.86 | 7.21 | 6.54 | 7.07 | 0.41 | 8.13 | 8.9 | 7.49 | 8.54 | deltaCT (Bacillus anthracis [21]): 8.03; deltaCT (Bacillus anthracis [22]): 7.83; deltaCT (Bacillus anthracis [23]): 7.67; deltaCT (Bacillus anthracis [24]): 8.15; deltaCT (Bacillus anthracis [25]): 0.88; deltaCT (Bacillus anthracis [26]): 0.2; deltaCT (Bacillus anthracis [27]): 7.26; deltaCT (Bacillus anthracis [28]): 8.8 |
| C[C@H]1c2cccc(O)c2C(=O)C2=C(O)[C@]3(O)C(=O)C(C(N)=O)=C(O)[C@@H](N(C)C)[C@@H]3[C@@H](O)[C@@H]21.O [DOXYCYCLINE] | 7.95 | 8.58 | 0.82 | 1.64 | 7.69 | 7.81 | 8.28 | 8.39 | 7.93 | 7.96 | 8.1 | 0.65 | 6.6 | 7.78 | 8.77 | 7.68 | 6.54 | 7.11 | 5.08 | 7.11 | deltaCT (Bacillus anthracis [21]): 6.8; deltaCT (Bacillus anthracis [22]): 6.01; deltaCT (Bacillus anthracis [23]): 7.24; deltaCT (Bacillus anthracis [24]): 7.57; deltaCT (Bacillus anthracis [25]): 7.87; deltaCT (Bacillus anthracis [26]): 7.58; deltaCT (Bacillus anthracis [27]): 8.82; deltaCT (Bacillus anthracis [28]): 7.01 |
